Test results taken from publication PMC10766536 (The Journal of Antibiotics, 2023).
Values joined by “and” are separate entries in the source; they are usually repeats but may differ in a detail not shown here. Equal values may be shown once.

By UniProt entry, the sequences of proteins in these tests, tags left out.
UniProt P10632, whole entry: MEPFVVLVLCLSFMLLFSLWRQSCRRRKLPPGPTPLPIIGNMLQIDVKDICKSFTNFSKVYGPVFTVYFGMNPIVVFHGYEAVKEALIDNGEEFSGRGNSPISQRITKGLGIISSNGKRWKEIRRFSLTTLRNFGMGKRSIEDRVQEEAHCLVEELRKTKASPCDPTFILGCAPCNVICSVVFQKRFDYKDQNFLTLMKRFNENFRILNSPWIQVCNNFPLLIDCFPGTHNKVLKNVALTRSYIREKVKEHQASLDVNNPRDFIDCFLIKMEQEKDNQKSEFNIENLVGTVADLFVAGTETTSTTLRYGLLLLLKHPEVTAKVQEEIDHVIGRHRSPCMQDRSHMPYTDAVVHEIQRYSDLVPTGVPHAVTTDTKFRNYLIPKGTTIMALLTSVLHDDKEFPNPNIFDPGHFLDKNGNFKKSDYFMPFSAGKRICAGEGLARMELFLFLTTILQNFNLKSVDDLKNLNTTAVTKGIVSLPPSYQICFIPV
UniProt P05177, whole entry: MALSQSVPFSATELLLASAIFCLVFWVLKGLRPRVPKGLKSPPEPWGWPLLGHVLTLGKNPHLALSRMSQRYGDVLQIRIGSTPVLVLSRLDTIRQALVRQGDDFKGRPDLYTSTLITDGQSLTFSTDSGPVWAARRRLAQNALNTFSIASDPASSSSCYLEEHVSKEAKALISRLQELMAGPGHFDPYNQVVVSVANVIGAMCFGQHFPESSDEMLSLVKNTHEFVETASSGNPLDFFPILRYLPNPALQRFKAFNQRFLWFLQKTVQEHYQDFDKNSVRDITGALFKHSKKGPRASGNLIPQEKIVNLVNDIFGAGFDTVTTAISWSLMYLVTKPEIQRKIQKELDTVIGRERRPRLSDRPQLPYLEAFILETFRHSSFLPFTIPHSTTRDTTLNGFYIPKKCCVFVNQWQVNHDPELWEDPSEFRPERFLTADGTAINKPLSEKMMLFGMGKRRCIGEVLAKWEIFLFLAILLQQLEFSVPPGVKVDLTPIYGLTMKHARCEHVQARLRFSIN
UniProt P20813, whole entry: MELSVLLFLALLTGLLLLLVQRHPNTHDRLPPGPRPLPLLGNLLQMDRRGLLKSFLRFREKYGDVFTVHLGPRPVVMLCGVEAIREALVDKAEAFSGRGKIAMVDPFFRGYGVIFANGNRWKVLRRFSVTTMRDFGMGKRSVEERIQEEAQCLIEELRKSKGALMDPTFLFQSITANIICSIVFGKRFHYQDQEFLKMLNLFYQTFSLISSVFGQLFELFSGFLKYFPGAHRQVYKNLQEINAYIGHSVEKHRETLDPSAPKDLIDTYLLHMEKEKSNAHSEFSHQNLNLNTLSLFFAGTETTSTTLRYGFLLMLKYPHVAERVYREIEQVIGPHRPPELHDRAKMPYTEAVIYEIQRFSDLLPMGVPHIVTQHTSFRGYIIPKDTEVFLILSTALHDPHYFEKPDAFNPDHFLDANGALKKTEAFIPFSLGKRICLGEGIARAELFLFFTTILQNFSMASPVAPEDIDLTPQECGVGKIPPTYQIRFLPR
UniProt P08684, whole entry: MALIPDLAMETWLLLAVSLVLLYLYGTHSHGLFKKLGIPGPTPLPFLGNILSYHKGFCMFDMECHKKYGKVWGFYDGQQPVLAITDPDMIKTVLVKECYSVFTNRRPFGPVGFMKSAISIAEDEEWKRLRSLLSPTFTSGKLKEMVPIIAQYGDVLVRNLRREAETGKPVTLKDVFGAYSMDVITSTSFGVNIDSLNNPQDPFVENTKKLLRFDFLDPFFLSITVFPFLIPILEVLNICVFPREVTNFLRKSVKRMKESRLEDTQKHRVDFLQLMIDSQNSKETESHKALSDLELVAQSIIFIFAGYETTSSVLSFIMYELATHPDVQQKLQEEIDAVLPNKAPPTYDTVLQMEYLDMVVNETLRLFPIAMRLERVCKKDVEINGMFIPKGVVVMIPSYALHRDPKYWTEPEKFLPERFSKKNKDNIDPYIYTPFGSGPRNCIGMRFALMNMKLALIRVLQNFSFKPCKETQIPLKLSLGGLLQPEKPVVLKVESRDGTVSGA
UniProt P11712, whole entry: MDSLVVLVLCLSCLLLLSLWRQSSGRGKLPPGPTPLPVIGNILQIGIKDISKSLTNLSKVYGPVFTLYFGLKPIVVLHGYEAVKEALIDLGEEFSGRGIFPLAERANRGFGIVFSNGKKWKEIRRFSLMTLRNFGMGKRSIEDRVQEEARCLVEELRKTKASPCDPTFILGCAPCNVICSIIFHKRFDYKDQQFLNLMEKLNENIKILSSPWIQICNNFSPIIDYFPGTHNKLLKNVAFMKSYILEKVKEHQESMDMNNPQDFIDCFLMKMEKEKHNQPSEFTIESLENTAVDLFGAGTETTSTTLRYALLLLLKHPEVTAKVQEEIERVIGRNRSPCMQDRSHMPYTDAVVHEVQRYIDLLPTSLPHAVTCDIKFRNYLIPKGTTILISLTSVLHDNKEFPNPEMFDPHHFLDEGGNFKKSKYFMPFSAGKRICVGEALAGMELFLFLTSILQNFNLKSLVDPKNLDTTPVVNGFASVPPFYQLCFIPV

Experiments:
CYP 2C8 = CYP 2C8 (Homo sapiens, UniProt P10632); assay: CYP inhibition; details: read-out: CYP inhibition IC50; CYP 2C8, substrate Amodiaquine; ND = Not Detected
[1] = test system: Salmonella typhimurium AR-0031; assay: S. typhimurium intracellular killing assay in THP-1 macrophages; type: cell-based; details: Salmonella typhimurium AR-0031 in THP-1 macrophages, top conc. 1e−4 M
Protocol: (§1) THP-1 monocytic cell line (American Type Culture Collection) was grown in media (RPMI + 10% FBS + 1% Penicillin/Streptomycin), then seeded at a density of 1e5 cells/well in a 96 well plate and differentiated into macrophages for 3 days prior to infection using 200 nM PMA. Overnight culture of S. aureus or S. typhimurium was grown in RPMI or TSB, respectively, washed twice with PBS and resuspended at 1e7 cfu/ml in PBS. THP-1 were washed with warm media (RMPI without FBS) to remove the Penicillin/Streptomycin and then infected with the bacterial suspension at a multiplicity of infection of 10:1 (S. aureus:macrophages) or 5:1 (S. typhimurium:macrophages). Plates were centrifuged at 300 × g for 5 min to synchronize adhesion of the bacteria to the macrophages, then incubated at 37 °C for 2 h for S. aureus infection or 1 h for S. typhimurium infection. Free-floating bacteria were removed by washing twice with warm media and the remaining extracellular bacteria were killed by addition of media containing gentamicin (50 ug/ml). […]

[2] = test system: Salmonella typhimurium ATCC 14028; assay: as above; type: cell-based; details: Salmonella typhimurium ATCC 14028 in THP-1 macrophages, top conc. 1e−4 M
Protocol: as §1

[3] = test system: S. aureus MRSA strain N315; assay: S. aureus IV advanced disseminated infection mouse model, kidney burden; type: in vivo, Balb/c mice
[4] = test system: S. aureus MRSA strain NRS384; assay: as above; type: in vivo, Balb/c mice
S. aureus NRS384 [5] = assay: S. aureus intracellular killing assay in THP-1 macrophages; type: cell-based; details: S. aureus NRS384 in THP-1 macrophages, 2 h, top conc. 1e−6 M
Protocol: as §1

S. aureus NRS384 [6] = assay: S. aureus broth killing (growth inhibition) assay; details: S. aureus NRS384, TSB, 24 h, OD600
CYP 1A2 = CYP 1A2 (Homo sapiens, UniProt P05177); details: read-out: CYP inhibition IC50; CYP 1A2, substrate Phenacetin; ND = Not Detected
[7] = test system: Salmonella typhimurium AR-0031; assay: S. typhimurium broth killing (growth inhibition) assay; details: Salmonella typhimurium AR-0031, TSB, 24 h
[8] = test system: Salmonella typhimurium ATCC 14028; assay: as above; details: Salmonella typhimurium ATCC 14028, TSB, 24 h
[9] = Compound stability in CYP induction assay
CYP 2B6 = CYP 2B6 (Homo sapiens, UniProt P20813)
Sprague Dawley rats = assay: 2-week IV once-a-day toxicity study with 2-week recovery in Sprague Dawley rats; type: in vivo
CYP 3A4 = CYP 3A4 (Homo sapiens, UniProt P08684)
CYP 2C9 = CYP 2C9 (Homo sapiens, UniProt P11712)
[10] = Toxicokinetics in 2-week IV rat toxicity study; type: in vivo
[11] = test system: Caco-2: endogenous transporters
[12] = 0.002 mg/kg in combination with vancomycin
[13] = males, combination with vancomycin (1 + 110 mg/kg/day), end of treatment, considered vancomycin-related
[14] = males, combination with vancomycin, after 14-day recovery period

## CO[C@H]1/C=C/O[C@@]2(C)Oc3c(C)c(O)c4c(=O)c(c5oc6cc(OCCN(C)C)cc(O)c6nc-5c4c3C2=O)NC(=O)/C(C)=C\C=C\[C@H](C)[C@H](O)[C@@H](C)[C@@H](O)[C@@H](C)[C@H](OC(C)=O)[C@@H]1C
CYP 2C8
  IC50: 1990 nM
[1]
  Intracellular MIC: 30 µM
[2]
  Intracellular MIC: >100 µM
[3]; [12]
  bacterial load (kidney): below the limit of detection
[3]; 0.002–0.25 mg/kg in combination with vancomycin
  S. aureus kidney burden: to or near the limit of detection
[4]; [12]
  bacterial load (kidney): below the limit of detection
[4]; 0.01 mg/kg (lowest tested dose) in combination with vancomycin
  S. aureus kidney burden: below the limit of detection
[4]; 0.05 mg/kg in combination with vancomycin
  bacterial load (kidney): below the limit of detection
[4]; 0.25 mg/kg monotherapy
  reduction in S. aureus kidney burden: ~ 3 logs
[4]; 0.01–0.25 mg/kg sc single dose in combination with vancomycin
  S. aureus kidney burden: further reduced kidney burden
S. aureus NRS384 [5]
  Intracellular MIC: 0.04 µM
S. aureus NRS384 [6]
  Broth MIC: 0.00391 µM
CYP 1A2
  IC50: 2020 nM
[7]
  Broth MIC: 1 µM
[8]
  Broth MIC: 4 µM
[9]
  Average % Stability: 53.7%
CYP 2B6
  IC50: 2980 nM
Sprague Dawley rats; end of recovery period
  dose with apparent minimal increases in platelet counts in males: ≥ 1 mg/kg/day
  dose with persistent increase in reticulocytes and red blood cell distribution width in males: 10 mg/kg/day
Sprague Dawley rats; end of treatment period
  dose with minimal increases in reticulocyte counts: 10 mg/kg/day
Sprague Dawley rats; [13]
  neutrophils counts: mild decreases
  platelet counts: minimal increase
  red cell mass parameters (red blood cells, hemoglobin, hematocrit): minimal decreases
Sprague Dawley rats; [14]
  alanine aminotransferase activity: minimal decrease
  triglyceride concentrations: mild increase
Sprague Dawley rats; males, combination with vancomycin, end of recovery period
  platelet counts: minimal increases
Sprague Dawley rats; rat, IV QD 14 days, alone or in combination with vancomycin
  body weight, body weight gains, food consumption changes: no body weight, body weight gains, or food consumption changes
Sprague Dawley rats; rat, IV QD 14 days, highest dose administered
  no-observed-adverse-effect level (NOAEL): 10 mg/kg/day
Sprague Dawley rats; still noted at end of 14-day recovery period
  dose with decrease in globulin/increase in albumin/globulin ratio in males: 1 mg/kg/day
CYP 3A4
  IC50: 2710 nM and 2150 nM
CYP 2C9
  IC50: 4650 nM
[10]; rat IV QD
  accumulation following 14 daily doses: No apparent accumulation
[10]; rat IV QD 1 mg/kg/day, males vs females
  sex difference in exposure: No sex difference
[10]; rat IV QD 0.1-10 mg/kg/day
  dose proportionality of Cmax and AUCtau: greater than dose proportional
[10]; rat IV, 1 + 110 mg/kg/day, compound 5: except Day 1, slightly greater Cmax and AUC
  AUC or Cmax when coadministered with vancomycin: not impacted
[11]
  Papp A→B: 1.17 ×10⁻⁶ cm/s
